Measurements published in patent US8304410B2, “Pyrrole compounds as inhibitors of mycobacteria, synthesis thereof and intermediates thereto” (priority 2007, dated 2012).

Test system: Vero cells
Conditions: CC50 Vero / MIC (considering M. tuberculosis H37Rv)

CSc1ccc(-c2cc(CN3CCSCC3)c(C)n2-c2ccc(F)cc2)cc1 [Compound 3a, N-(4-fluorophenyl)-2-methyl-3-thiomorpholinomethyl-5-(4-methylsulfanylphenyl)pyrrole]
Protection Index (PI) CC50/MIC: > 1024

NNC(=O)c1ccncc1 [Isoniazid, INH, Isoniazid, reference compound]
Protection Index (PI) CC50/MIC: 128

[H]/N=C(/N)N[C@H]1[C@H](O)[C@@H](O)[C@H](O[C@@H]2O[C@@H](C)[C@](O)(C=O)[C@H]2O[C@@H]2O[C@@H](CO)[C@H](O)[C@@H](O)[C@@H]2NC)[C@@H](N/C(N)=N\[H])[C@@H]1O [Streptomycin, SM, Streptomycin, reference compound]
Protection Index (PI) CC50/MIC: 128

CSc1ccc(-c2cc(CN3CCOCC3)c(C)n2-c2ccc(F)cc2)cc1 [Compound 3h]
Protection Index (PI) CC50/MIC: 177.52

Cc1c(CN2CCN(C)CC2)cc(-c2ccc(Cl)cc2)n1-c1ccc(Cl)cc1 [BM 212, 1-{[1,5-bis(4-chlorophenyl)-2-methyl-1H-pyrrol-3-yl]methyl}-4-methylpiperazine]
Protection Index (PI) CC50/MIC: 5.7
